The target of this assay is adenine DNA methyltransferase (UniProt P0CAW2). The assay is described as follows: In vitro DNA methyltransferase filter assay on library samples (3H-SAM, hemimethylated 45/50 DNA). The assay is classed as biochemical. Conditions: read-out: approximate Ki; assuming the theoretical maximum concentration in the well.

Amino acid sequences for entries named in this document (tags omitted). A change or cut given only in a name is not applied to a line headed by its entry.
UniProt P0CAW2: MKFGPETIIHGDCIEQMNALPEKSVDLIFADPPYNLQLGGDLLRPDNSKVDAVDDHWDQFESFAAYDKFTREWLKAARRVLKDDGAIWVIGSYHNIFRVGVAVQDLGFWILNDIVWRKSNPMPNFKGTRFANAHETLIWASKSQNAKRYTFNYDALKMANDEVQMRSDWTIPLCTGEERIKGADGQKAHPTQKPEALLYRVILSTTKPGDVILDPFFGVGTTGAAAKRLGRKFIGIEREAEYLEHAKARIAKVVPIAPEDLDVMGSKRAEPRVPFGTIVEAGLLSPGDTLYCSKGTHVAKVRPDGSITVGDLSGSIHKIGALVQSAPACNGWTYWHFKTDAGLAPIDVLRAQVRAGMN

The values that follow come from US20050227933A1 (priority 2001, published 2005).

Structures are written as SMILES.

For orientation: Ki means the dissociation constant of the complex between target and ligand, obtained from inhibition or displacement. In the case of `c1ccc(B(OCCNc2ncnc3[nH]cnc23)c2ccccc2)cc1`, the Ki was 1000 nM.
